Anti-infective test results gathered from many reports (values: NIAID ChemDB through PubChem).

Shared fields: tests in culture; agent: HIV-1; cell line: MT-2; measure: EC50

Blank or dashed fields: not listed here. a–b is a range or a potency band. ECn: concentration that inhibits the pathogen or its effect by n%. Lines come from different laboratories, so protocols vary.

compound | strain or isolate | mutations | read by | result
CC[C@H](C)[C@H]1NC(=O)[C@@H](NC(=O)OC(C)(C)C)[C@@H](C)OC(=O)[C@H](Cc2ccc(OC)cc2)N(C)C(=O)[C@@H]2CCCN2C(=O)[C@H](CC(C)C)NC(=O)C(C)(C)NC(=O)C[C@@H]1O | NL4-3 |  | luciferase | 11.96 µM
O=C(CCCC[C@@H]1SC[C@H]2[C@@H]1N(Cc1cccc(Br)c1)C(=O)N2Cc1cccc(Br)c1)OCc1cccc(Br)c1 | RF |  |  | <45 µM
CN(C)c1cccc(C[C@@H]2[C@H](O)[C@@H](O)[C@@H](Cc3cccc(N(C)C)c3)N(Cc3ccccc3)C(=O)N2Cc2ccccc2)c1 | RF |  | hybridisation | <1.2 µM
O=C1N(CC2CCCC2)[C@H](Cc2ccccc2)[C@H](O)[C@@H](O)[C@@H](Cc2ccccc2)N1CC1CCCC1 | RF |  | hybridisation | <1.7 µM
O=C1N(Cc2ccc3scnc3c2)[C@H](Cc2ccccc2)[C@H](O)[C@@H](O)[C@@H](Cc2ccccc2)N1Cc1ccc2scnc2c1 | RF |  |  | <3.2 µM
O=C(O)CCCC[C@@H]1SC[C@H]2[C@@H]1N(Cc1cccc(Br)c1)C(=O)N2Cc1cccc(Br)c1 | RF |  |  | <34 µM
C=CCN1C(=O)N(CC=C)[C@H](Cc2ccccc2)[C@H](O)[C@@H](O)[C@H]1Cc1ccccc1 | RF |  | hybridisation | <4.7 µM
Cc1ncc(-c2ccccc2F)c(N2CCC(C)(C)CC2)c1[C@H](OC(C)(C)C)C(=O)O | NL4-3 |  | luciferase | 0.01 µM
NC(=O)C(c1ccccc1)(c1ccccc1)[C@H]1CCCN(CCc2ccc3c(c2)CCO3)C1 | NL4-3 |  | cytopathic effect / XTT | 1.3 µM
CC#C[C@@]1(CO)C=C[C@H](n2cc(C)c(=O)[nH]c2=O)O1 | IIIB |  | cytopathic effect / MTT | 4 µM
O=C1N(Cc2ccc(CO)cc2)[C@H](Cc2ccccc2)[C@H](O)[C@@H](O)[C@@H](Cc2ccccc2)N1Cc1ccc(CO)cc1 | RF |  | hybridisation | <0.136 µM
O=C(O)P(=O)(O)O | HXB2D |  | XTT | 40 µM
Cc1cn([C@H]2C[C@H](N=[N+]=[N-])[C@@H](CO)O2)c(=O)[nH]c1=O |  |  | syncytia | 0.1 µM
Nc1ncnc2c1ncn2[C@H]1CC[C@@H](CO)O1 | IIIB |  | cytopathic effect / XTT | <2 µM
Nc1nc(=O)n([C@@H]2C=C[C@H](CO)O2)cc1F | IIIB |  | cytopathic effect / MTT | 0.18 µM
O=C1N(Cc2ccc3[nH]ccc3c2)[C@H](Cc2ccccc2)[C@H](O)[C@@H](O)[C@@H](Cc2ccccc2)N1Cc1ccc2[nH]ccc2c1 | RF |  |  | <0.19 µM
O=C1c2ccccc2C(=O)N1CC(O)CN1CCC(CC2C(=O)N(c3ccccc3)c3ccccc32)CC1 | IIIB |  | cytopathic effect / XTT | 7.9 µM
O=C1N(Cc2ccc3c(c2)NS(=O)(=O)N3)[C@H](Cc2ccccc2)[C@H](O)[C@@H](O)[C@@H](Cc2ccccc2)N1Cc1ccc2c(c1)NS(=O)(=O)N2 | RF |  |  | <32 µM
CCN(c1nc(F)ccc1NC(C)(C)C)C1CCN(C(=O)c2cc3cc(NC(=O)N4CCN(C)CC4)ccc3[nH]2)CC1 | IIIB | K112M K113E V128I | p24 / ELISA | 0.0261 µM
O=C1N(Cc2cccc(O)c2)[C@H](Cc2ccccc2)[C@H](O)[C@@H](O)[C@@H](Cc2ccccc2)N1Cc1cccc(O)c1 | RF |  | hybridisation | <0.054 µM
CC[C@H](C)[C@H]1NC(=O)[C@@H](NC(=O)[C@@H](CC(C)C)N(C)C(=O)c2cc3ccccc3s2)[C@@H](C)OC(=O)[C@H](Cc2ccc(OC)cc2)N(C)C(=O)[C@@H]2CCCN2C(=O)[C@H](CC(C)C)NC(=O)[C@H](C(C)C)OC(=O)C[C@@H]1O | NL4-3 | Delta-env-VSV-Luc | luciferase | 0.038 µM
O=C1N(Cc2ccccc2)[C@H](Cc2ccc3ccccc3c2)[C@H](O)[C@@H](O)[C@@H](Cc2ccc3ccccc3c2)N1Cc1ccccc1 | RF |  | hybridisation | <3.3 µM
CC(C)(C)NC(=O)c1ccccc1SC[C@@H](O)[C@H](Cc1ccccc1)NC(=O)[C@H](CC(N)=O)NC(=O)c1ccc2ccccc2n1 |  |  |  | 0.41 µg/mL
Nc1ncnc2c1ncn2[C@@H]1O[C@H](CO)C[C@@H]1F | HXB2D |  | p24 | 5 µM
Nc1nc(=O)n(C[C@@H](CO)OCP(=O)(O)O)cc1F | LAI |  | p24 | >100 µM
Nc1nc(=O)n([C@H]2CC[C@H](CO)O2)cc1F | IIIB |  | cytopathic effect / MTT | 0.3 µM
Cc1ccc(S(=O)(=O)N(CC(C)C)C[C@@H](O)[C@H](Cc2ccccc2)NC(=O)O[C@H]2CO[C@H]3OCC[C@H]32)cc1 | IIIB | K112M K113E V128I M200I H219P I401T R409K D437N L441P R41K | p24 / ELISA | 0.008 µM
CC(C)CN(C[C@@H](O)[C@H](Cc1ccccc1)NC(=O)O[C@H]1CCOC1)S(=O)(=O)c1ccc(N)cc1 | GAG-L75 H219 V390 APV-resistant | Gag R409K L449F E468K PR L10F V32I M46I I54M A71V I84V | cytopathic effect / MTT | >2.5 µM
CCOC(=O)N1CCC(CC2C(=O)N(c3ccccc3)c3ccccc32)CC1 | RF |  | plaque count | <11 µM
C[C@H](Cn1cnc2c(N)ncnc21)OCP(=O)(O)O | HXB2D |  | XTT | 7 µM
NC(=O)C(c1ccccc1)(c1ccccc1)C1CCCN(CCOc2ccccc2)C1 | NL4-3 |  | cytopathic effect / XTT | 5.4 µM
CC(C)CN(C[C@@H](O)[C@H](Cc1ccccc1)NC(=O)O[C@H]1CCOC1)S(=O)(=O)c1ccc(N)cc1 | IIIB | L441P | p24 / ELISA | 0.0473 µM
O=C1N(Cc2cccc(Br)c2)[C@H]2[C@H](CS(=O)(=O)[C@H]2CCCCCO)N1Cc1cccc(Br)c1 | RF |  |  | <80 µM
CC(C)(C)NC(=O)[C@@H]1C[C@@H]2CCCC[C@@H]2CN1C[C@@H](O)[C@H](Cc1ccccc1)NC(=O)[C@H](CC(N)=O)NC(=O)c1ccc2ccccc2n1 | HXB2 | PR-G48V | p24 | 0.0135 µM
O=C1N(Cc2ccc3[nH]c(=O)sc3c2)[C@H](Cc2ccccc2)[C@H](O)[C@@H](O)[C@@H](Cc2ccccc2)N1Cc1ccc2[nH]c(=O)sc2c1 | RF |  |  | <0.109 µM
Cc1nc(N)c(-c2ccc(OCCc3ccc(F)cc3)c(F)c2F)c(N2CCC(C)(C)CC2)c1[C@H](OC(C)(C)C)C(=O)O | NL4-3 |  | luciferase | 0.002 µM
CO[C@H]1O[C@@H](n2ccc(=O)[nH]c2=O)C[C@@H]1N=[N+]=[N-] | IIIB |  | cytopathic effect / MTT | 0.028 µM
CC[C@H](C)[C@H]1NC(=O)[C@@H](NC(=O)[C@@H](C)NC)[C@@H](C)OC(=O)[C@H](Cc2ccc(OC)cc2)N(C)C(=O)[C@@H]2CCCN2C(=O)[C@H](CC(C)C)NC(=O)[C@@H](C)C(=O)[C@H](C(C)C)OC(=O)C[C@@H]1O | NL4-3 |  | luciferase | 4.14 µM
O=C1N(Cc2ccccc2)[C@H](Cc2ccoc2)[C@H](O)[C@@H](O)[C@@H](Cc2ccoc2)N1Cc1ccccc1 | RF |  | hybridisation | <7.8 µM
Nc1nc(=O)n(CCOCP(=O)(O)O)cc1F | LAI |  | p24 | >100 µM
O=C1N(Cc2ccc3ncoc3c2)[C@H](Cc2ccccc2)[C@H](O)[C@@H](O)[C@@H](Cc2ccccc2)N1Cc1ccc2ncoc2c1 | RF |  |  | <0.44 µM
NC(=O)C(c1ccccc1)(c1ccccc1)[C@H]1CCCN(CCc2ccc3c(c2)CCO3)C1 | IIIB |  | cytopathic effect / XTT | >32 µM
O=C(Nc1cc(S(=O)(=O)O)cc2cc(S(=O)(=O)O)c(N=Nc3ccc(N=Nc4c(S(=O)(=O)O)cc5cc(S(=O)(=O)O)cc(NC(=O)c6cccc(Cl)c6Cl)c5c4O)cc3)c(O)c12)c1ccc(Cl)cc1Cl | A018A |  |  | 0.63–3.2 µg/mL
CCCN1C(=O)N(Cc2ccc3ccccc3c2)[C@H](Cc2ccccc2)[C@H](O)[C@@H](O)[C@H]1Cc1ccccc1 | RF |  | hybridisation | <3.3 µM
CCCCCCCCCCCCCCCCOCCCOP(=O)(O)COCCNc1cc(N)nc(N)n1 | LAI |  | p24 | 0.14 µM
Nc1ccn([C@H]2CC[C@@H](CO)O2)c(=O)n1 | NL4-3 | INTG-G140S |  | 0.025 µM
O=[P@]12O[C@@H]([C@@H](O)[C@@H](Cc3ccccc3)N1CC1CC1)[C@@H](Cc1ccccc1)N2CC1CC1 | RF |  |  | <110.5 µM
CCCCCCCC/C=C\CCCCCCCCOCCOP(=O)(O)COCCn1cnc2c(NC3CC3)nc(N)nc21 | LAI |  | p24 | <0.00001 µM
CN1CC=C(CC2(CC3=CCN(C)CC3)c3cccc4cccc(c34)C2O)CC1 | IIIB |  | cytopathic effect / XTT | 5.2 µM
O=C1N(Cc2cccc(F)c2)[C@H](Cc2ccccc2)[C@H](O)[C@@H](O)[C@@H](Cc2ccccc2)N1Cc1cccc(F)c1 | RF |  | hybridisation | <0.71 µM
CN1CC=C(CC2(CC3=CCN(C)CC3)C(=O)N(c3ccccc3)c3cc4ccccc4cc32)CC1 | IIIB |  | cytopathic effect / XTT | 4.4 µM
CN(C)C(=O)C(c1ccccc1)(c1ccccc1)[C@H]1CCCN(CCc2ccc3c(c2)CCO3)C1 | NL4-3 |  | cytopathic effect / XTT | 3.8 µM
Cc1ccnc2c1NC(=O)c1cccnc1N2C1CC1 | N119 RT-Y181C NNRTI-resistant | RT-Y181C | cytopathic effect | >3.8 µM
Cc1cn([C@H]2C[C@H](F)[C@@H](CP(=O)(O)O)O2)c(=S)[nH]c1=O |  |  | syncytia | 0.5 µM
Nc1ccn([C@H]2CC[C@@H](CO)O2)c(=O)n1 | M184V(RT-M184V) | RT-M184V | p24 | 1.1 µM
COC(=O)CCCC[C@@H]1SC[C@H]2[C@@H]1N(Cc1cccc(Br)c1)C(=O)N2Cc1cccc(Br)c1 | RF |  |  | <44 µM
COc1ccccc1C[C@@H]1[C@H](O)[C@@H](O)[C@@H](Cc2ccccc2OC)N(Cc2ccccc2)C(=O)N1Cc1ccccc1 | RF |  | hybridisation | <8.8 µM
Cc1ccc(Nc2nc(C)c([C@H](OC(C)(C)C)C(=O)O)c(N3CCC(C)(C)CC3)c2-c2ccc(OCCc3ccc(F)cc3)cc2)cn1 | NL4-3 |  | luciferase | 0.005 µM
CC(C)(C)NC(=O)[C@@H]1CN(Cc2cccnc2)CCN1C[C@@H](O)C[C@@H](Cc1ccccc1)C(=O)N[C@H]1c2ccccc2C[C@H]1O | NL4-3 | Indinavir-resistant (PR-M46I L63P V82T I84V) | cytopathic effect / neutral red | 0.0177 µM
CC(C)=CCOc1cc(NC(=S)c2ccoc2C)ccc1Cl | UC781-resistant (RT K103N Y181C) A17 | RT-K103N Y181C | p24 | >4 µg/mL
O=c1[nH]cnc2c1ncn2[C@H]1CC[C@@H](CO)O1 | HXB2 |  | p24 | 1.5 µM
Nc1cc(Cl)nc(SCc2ccccc2)n1 | IIIB |  | syncytia | 0.4–4 µM
Nc1ccn([C@H]2CC[C@@H](CO)O2)c(=O)n1 | G910-6 AZT-resistant (RT D67N K70R T215Y K219Q) | RT-D67N K70R T215Y K219Q |  | 0.46 µM
Nc1ccn([C@@H]2CC[C@H](CO)O2)c(=O)n1 | IIIB |  | cytopathic effect / MTT | 0.35 µM
Nc1nc(N)c2ncn(CCOCP(=O)(O)O)c2n1 | LAI |  | p24 | 0.15 µM
Cc1cn([C@H]2C[C@H](N=[N+]=[N-])[C@@H](CO)O2)c(=O)[nH]c1=O | HxB2-MT 65 (RT-K65R | RT-K65R | p24 / ELISA | 0.003 µM

Repeating the final 9 entries:

compound | strain or isolate | mutations | read by | result
Cc1ccc(Nc2nc(C)c([C@H](OC(C)(C)C)C(=O)O)c(N3CCC(C)(C)CC3)c2-c2ccc(OCCc3ccc(F)cc3)cc2)cn1 | NL4-3 |  | luciferase | 0.005 µM
CC(C)(C)NC(=O)[C@@H]1CN(Cc2cccnc2)CCN1C[C@@H](O)C[C@@H](Cc1ccccc1)C(=O)N[C@H]1c2ccccc2C[C@H]1O | NL4-3 | Indinavir-resistant (PR-M46I L63P V82T I84V) | cytopathic effect / neutral red | 0.0177 µM
CC(C)=CCOc1cc(NC(=S)c2ccoc2C)ccc1Cl | UC781-resistant (RT K103N Y181C) A17 | RT-K103N Y181C | p24 | >4 µg/mL
O=c1[nH]cnc2c1ncn2[C@H]1CC[C@@H](CO)O1 | HXB2 |  | p24 | 1.5 µM
Nc1cc(Cl)nc(SCc2ccccc2)n1 | IIIB |  | syncytia | 0.4–4 µM
Nc1ccn([C@H]2CC[C@@H](CO)O2)c(=O)n1 | G910-6 AZT-resistant (RT D67N K70R T215Y K219Q) | RT-D67N K70R T215Y K219Q |  | 0.46 µM
Nc1ccn([C@@H]2CC[C@H](CO)O2)c(=O)n1 | IIIB |  | cytopathic effect / MTT | 0.35 µM
Nc1nc(N)c2ncn(CCOCP(=O)(O)O)c2n1 | LAI |  | p24 | 0.15 µM
Cc1cn([C@H]2C[C@H](N=[N+]=[N-])[C@@H](CO)O2)c(=O)[nH]c1=O | HxB2-MT 65 (RT-K65R | RT-K65R | p24 / ELISA | 0.003 µM